Data on two molecules can be found in PMC10128061, “Targeting Sterylglucosidase A to Treat Aspergillus fumigatus Infections” (mBio, 2023).

In the series the test system is human lung epithelial cancer cell line A549. The conditions noted are these: LD50 in A549 divided by IC50 with ResGlp. As for the experimental part:
The cells were maintained in Dulbecco’s modified Eagle medium (DMEM) containing 10% fetal bovine serum (FBS) and 1% penicillin-streptomycin. At passage 11, 10^5 cells were transferred into each well of 96-well plates and cultured for 18 to 24 h to allow the cells to adhere to the well surface. Next, the medium was removed, and fresh medium containing the selected compounds at concentration range of 1 to 512 μM was added to the wells. Controls with equivalent serial concentrations of DMSO were also evaluated and compared with a control without DMSO. The plate was incubated at 37°C with 5% CO2. After 24 h, the supernatant was removed and 50 μL of 5 mg/mL 3-(4,5-dimethylthiazol-2-yl)-2,5-diphenyltetrazoliumbromide (MTT) solution in PBS was added to each well. The plates were incubated for an additional 4 h, and the formazan crystals formed inside the cell were dissolved by adding 50 μL DMSO. Next, the absorbance was measured at 570 nm, and the calculated LD50 was divided by the IC50 of each hit in order to determine the SI of each compound.

Several values for one entry are separate records, joined by “and”; a condition that tells them apart may be missing. Identical values can stand only once. Like-named read-outs stand apart in the source and are kept apart here.

`Cc1[nH]c2ccc(CNc3cc(N)ncn3)cc2c1C` [Hit B]: the “SI (LD50/IC50)” value (listed as B) was 350.2 and > 350; the “SI (LD50/IC50)” value (listed as hit B) is 350.

Turning to `CC(Cc1ccc2c(c1)OCO2)c1c(-c2ccccc2)ncn1CCO` (stereo not drawn) [Hit C], the “SI (LD50/IC50)” value is listed as 730.
